Format: biochemical
Settings: sodium phosphate buffer
Procedure: The thermo-dependence of the activity was assayed in 50 mM potassium phosphate buffer at various temperatures ranging from 4 to 90° C. Thermostability was tested by incubating aliquots of the enzyme in 50 mM potassium phosphate buffer for 30 minutes at different temperatures. After cooling the sample on ice for 10 minutes, residual activity was determined by a standard analysis;
The pH effect on the enzymatic activity was measured using 2.0 mM pNPGlc in the following buffer (50 mM):
Buffer: pH range of 2 to 10: KCl—HCl (pH 2), glycine-HCl (pH 3), sodium acetic acid (pH 4 and 5), sodium phosphate (pH 6 and 7), Tris-HCl (pH 8 and 9) and glycine-sodium hydroxide (pH 10).
The enzyme was incubated in each of the above mentioned buffers at 4° C. for 24 hours, and then pHPGlc was analyzed in 50 mM potassium buffer to measure the enzymatic stability according to pH change. The activity was measured by the above mentioned method.
The results were represented as an activity probability obtained at the optimum pH.
The temperature-dependent activity in the 50 mM potassium phosphate buffer was analyzed within the temperature range of 4-90° C. using 2.0 mM pNPGlc at the optimum pH for 5 minutes. […] The sample was cooled in ice for 10 minutes, and the residual activity was measured by pNPGlc analysis.

B1: Bgl-gyp17: recombinant ginsenoside glycosidase from Terrabacter Gsoil 3082, SEQ ID NO. 1, 589 residues (protein, listed as Terrebacter sp.)
chain: MDPYEDPRLPVEVRVEDLLGRLSLEEKVGLMFQTVIEAGSDGTVLEHPGSISKSPTSTVVLDKHLTHFNVHALDDPRMAARWSNALQALAERTPHGIPVTVSTDPRHAFIENVGVSFSAGAFSQWPEPLGLAALRDADAVRRFADIARQEYVAVGIRAALHPTLDLATEPRWARQAGTFGQDPDLVTELGVAYLKGFQGDSLGSGSVACTSKHFPGGGPQKDGEDAHFPYGREQVYPGGRFADHLKPFPPIIEAGTAGIMPYYGMPVDLVVDGVEIEPIGFGYNKQVVTGLLREKLGYDGVVVTDWELVNDNHVGDQVLPARAWGVEHLDPHGRMELILEAGADQFGGEECVEILLDLVAQGRVTEARVDESARRILAVKFRLGLFENPYVDEDEAAATVGRDDFREEGYAAQARSVTVLHHEGGRLPLEHGLRIYAEQVSPEAVARHGKLVDRPEDADVAVVRLTAPFDPRSDLFLESWFHQGSLDFPPGLVARLERIAAVCPLVVDVVLDRPAVLTPLLRFASAVVGSFGSCDDALLDALTGTIAPVGRLPFDLPRSMDQVRAHGEDVPGYDDPLFPFGHGLRLDTE
modifications: PEPTIDE (1)..(589) amino acid sequence of Bgl-gyp17
notes: 1, 589 residues
  temperature of maximum activity: 45 °C
